Primary screen of a compound library

Measurements from “University of Dundee, Small-Polar-MMV Screening Library” (2021), ChEMBL document CHEMBL3988442.

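Whole-cell growth test on Mycobacterium tuberculosis, read after 4 days in a medium based on cholesterol and the lipid DPPC; the read-out is not stated. Tested at 500 µM. Direction is inferred from retests: higher values go with more growth inhibition. About 18,000 compounds were tested under these conditions; 5% (about 900) showed 50% or more at least once.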

Results are given as percent effect.
The record does not define 0% and 100%; most values in the screen are far below 50% and negative numbers occur (in some assays of this library far below -100).
This is part of a subset picked to be rich in strong results.

Result for CCN(C)C(=O)Nc1cnns1 was -3.586%. CNC(=O)NC(=O)C(C)Nc1cccc(C)c1 (stereo not given) read 63.43%. Result for O=C([C@@H]1C[C@H](F)CN1)N1CCc2ccccc21 was 28.23%. CCNCc1nc(-c2ccccc2)no1 read 55.22%. Result for O=C1CC(c2ccccc2Cl)NN1 (stereo not given) was 12.56%. NC(CO)c1cccc2ccccc12 (stereo not given) gave 30.19%.

With Nc1cnccc1OCc1ccccc1 the screen gave 11.03%. COCCOC1CCCNC1 (stereo not given) read -2.079%. Result for NC(=O)NCC1CCCCN1 (stereo not given) was 11.84%. CN(Cc1cc(C(N)=O)cs1)Cc1nccn1C gave 1.21%. With COc1cc(CN2CCCC2CO)cc2c1OCO2 (stereo not given) the screen gave 15.14%. Result for COc1ccc(C(=O)NC2=NCCS2)c(O)c1 was 87.26%.

With COc1cccc([C@@H]2C[C@H]2CN)c1 the screen gave 35.63%. Result for COCc1nn(CCCN2CCCCC2)c(=O)o1 was -4.057%. With O=C(NCCO)NC1CCOc2ccccc21 (stereo not given) the screen gave -2.035%. For CCN(Cc1ccncc1)C(=O)C1CCCNCC1 (stereo not given) the result was -1.257%. With CC(NC(=O)NCCc1ccccn1)c1nncn1C (stereo not given) the screen gave -16.61%. For COCCOc1ccc(CNC(=O)c2ccoc2)cn1 the result was -3.569%.

With CN(c1ccc(C(=O)N2CCCCC2)cc1)S(C)(=O)=O the screen gave 11.49%. For CN(C)CCNC(=O)CCS(=O)(=O)c1ccc(Cl)cc1 the result was 0.4487%. C=C(C)COCCNC(=O)c1c(O)cccc1F gave 40.82%. Result for Cn1ccnc1CSCCO was -5.015%. NC(=O)CNc1cccc2ccccc12 read -1.309%. For COCCC1(C(=O)N(C)CC2CCCCO2)CCC1 (stereo not given) the result was -16.29%.

Result for OCC(Nc1ncccc1Br)c1ccccc1 (stereo not given) was 61.42%. Cc1cc(NC(=O)NCc2cccc(C)n2)ccn1 read -12.33%. With N#Cc1ccccc1NCc1cccnc1 the screen gave 25.3%. Result for CN(CCn1cnnc1)c1ccc2ccc(F)cc2n1 was 72.21%. With CC(C)c1cc(C(=O)NCCN(C)S(C)(=O)=O)no1 the screen gave -1.445%. With O=C(CSc1cnn[nH]1)Nc1ccc(Cl)cn1 the screen gave 87.14%.

With CC(N)c1ccc(Br)cc1OCCCO (stereo not given) the screen gave 14.44%. For COc1ccc(CCN)cc1S(N)(=O)=O the result was 8.842%. Result for c1ccc(NCCNc2ccccn2)cc1 was 72.32%. CCCNC(=O)C(C)NC(=O)c1ccoc1 (stereo not given) gave -8.208%. With O=C(OCC(F)(F)F)c1cccnc1 the screen gave -23.95%. Result for Cc1ccc(S(=O)(=O)NCCN)cc1Cl was 18.27%.

For CC(O)CNC(=O)c1ccc(-c2ccccc2F)o1 (stereo not given) the result was 29.68%. CN(C)C(=O)c1csc(N2CCCCC2)n1 read 38.88%. For CN(Cc1nnc2n1CCC2)C(=O)c1ccccc1 the result was -9.488%. Result for CNCC(=O)NCCc1nc(-c2cccnc2)n[nH]1 was 2.852%. Result for Nc1nc(SCCO)n[nH]1 was 3.553%. Cn1cc(CCNC(=O)NCC2(C)CCCS2)cn1 (stereo not given) read 10.27%.

For CC(NC(=O)CNc1cc(F)cc(Br)c1)C(=O)N(C)C (stereo not given) the result was 58.66%. For COc1ccc(CN(C)C(=O)C2CC2)cc1F the result was 80.87%. COc1cc(OC)cc(N2CCC(N)CC2)c1 read -3.646%. For CCc1cc2c(=O)n(CCN3CCNCC3)cnc2s1 the result was 10.79%. O=C(CNC1CC1)NC[C@H]1CCc2ccccc2O1 gave 54.65%. COc1cccc(S(=O)(=O)CCN2CCC(O)CC2)c1 gave 33.11%.

CCc1ccc(C(=O)Nc2ccncc2)o1 gave -0.2183%. CC1(C)Oc2ccc(NC(=O)C3CCOC3)cc2O1 (stereo not given) gave 37.02%. With COc1cccc(N2CCC(N)CC2)c1 the screen gave 29.31%. CN(CC(=O)N1CCOCC1)Cc1ccc(Br)o1 gave 14.95%.

The first 6 entries again:

| Compound | effect |
|---|---|
| `CCN(C)C(=O)Nc1cnns1` | -3.586 |
| `CNC(=O)NC(=O)C(C)Nc1cccc(C)c1` (stereo not given) | 63.43 |
| `O=C([C@@H]1C[C@H](F)CN1)N1CCc2ccccc21` | 28.23 |
| `CCNCc1nc(-c2ccccc2)no1` | 55.22 |
| `O=C1CC(c2ccccc2Cl)NN1` (stereo not given) | 12.56 |
| `NC(CO)c1cccc2ccccc12` (stereo not given) | 30.19 |